Measured values from publication PMC8003391, “QSAR-Based Virtual Screening of Natural Products Database for Identification of Potent Antimalarial Hits” (Biomolecules, 2021).

Test system: HepG2 cells
Assay: Cytotoxicity, MTT reduction assay
Assay type: cell-based, human
Details: CC50 (HepG2)/EC50 (3D7)
Protocol: Cytotoxicity of selected compounds was evaluated using the MTT reduction assay (3-[4,5-dimethyl-thiazol-2-yl]-2,5-diphenyltetrazolium chloride). Human hepatoma (HepG2) cells were cultured in Dulbecco’s Modified Eagle Medium supplemented with gentamycin (40 mg/L) and 10% heat-inactivated fetal bovine serum at 37 °C and 5% CO2. Cells were seeded in 96-well plates (NEST Biotechnology Co., Ltd., Wuxi, Jiangsu, China) at 10^5 cells per well and incubated in the presence of a serial dilution of the drugs starting at 100 µM. After 72 h of incubation, MTT was added to the wells. The optical density was measured at 570 nm (CLARIOStar, Labtech BMG Inc, Durham, NC, USA) and cell viability was expressed as a percentage relative to the untreated control. CC50 values were calculated by plotting a log dose vs. viability curve in GraphPad Prism 6 (GraphPad, La Jolla, CA, USA). The selectivity index (SI) of the compounds was determined by the expression:SI = (HepG2 CC50)/(Pf EC50), where HepG2 CC50 corresponds to the cytotoxic concentration of compounds in HepG2 cells and Pf EC50 relates to the 50% inhibitory concentration on P. falciparum 3D7 strain.

Compound | In vitro Therapeutic Index (SI)
CCOC(=O)c1ccc2[nH]cc(C(=O)OCC)c(=O)c2c1 [LDT-588] | > 10 and 17.46
COc1cc(C2NCCc3cc(OC)c(OC)cc32)ccc1O (centres unmarked) [LDT-601] | 3.30
COc1ccc(C2c3[nH]c4ccccc4c3C[C@H]3C(=O)N(C4CC4)CC(=O)N23)cc1OC (some centres unmarked) [LDT-599] | 5.70
Cn1c(=O)[nH]c2nnc(-c3ccc(Cl)cc3)nc2c1=O [LDT-592] | 1.87
COc1ccc(C2CC(=O)NC3=C2C(=O)C2(Oc4c(Cl)c(OC)cc(OC)c4C2=O)C(C)C3)cc1O (centres unmarked) [LDT-614] | 4.48

Several values for one entry are separate records, joined by “and”; a condition that tells them apart may be missing. Equal values may be shown once.
